# Measured data: PubChem BioAssay AID624099 (ICCB-Longwood, 2012)
# Screen: 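Human genes that papillomavirus E2 requires to repress the HPV18 LCR promoter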 (primary screen)
# Cells: human C33A cervical carcinoma cells (HPV-negative) stably expressing BPV1 E2 and an HPV18 LCR luciferase reporter
# Knock-down reagent: siRNA pool against human genes, 40 nM
# Time to read-out: 72 h
# Detection: 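HPV18 LCR reporter light per well, converted to plate-wise z-scores that exclude control wells, and averaged over triplicate plates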
# Reading the numbers: mean z-score and z-score: higher = stronger reporter signal, weaker E2 silencing
# Rule for the call: 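Mean z ≥ 2 together with z ≥ 2 in two or more of the three replicates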
# In all, the deposit lists about 21,000 reagents; this is a random part of them. 497 of them (2.4%) count as active. 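Higher z means weaker E2 silencing; only reporter increases were scored, and knock-downs that hurt cell survival may mask genuine repressor factors.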
Target gene,PubChem SID,mean z-score,"z-score, replicate A","z-score, replicate B","z-score, replicate C",call
UNC5CL (unc-5 family C-terminal like),SID134322295,-0.8,-0.86,-0.74,-0.68,inactive
ABCA12 (ATP binding cassette subfamily A member 12),SID134313281,0.7,0.7,0.66,0.72,inactive
KRTAP10-9 (keratin associated protein 10-9),SID134329132,-0.29,-0.64,-0.57,0.33,inactive
TRIM16 (tripartite motif containing 16),SID134316508,-0.34,-0.16,-0.47,-0.4,inactive
SATB2-AS1 (SATB2 antisense RNA 1),SID134320507,0.56,0.71,0.56,0.41,inactive
CPA4 (carboxypeptidase A4),SID134311245,1.76,2.19,1.8,1.28,inactive
LOC388467 (retired record),SID134328852,1.42,1.26,1.59,1.41,inactive
ADRA1B (adrenoceptor alpha 1B),SID56479066,-0.86,-0.97,-0.85,-0.77,inactive
ZFPL1 (zinc finger protein like 1),SID134323172,-0.69,-0.58,-0.7,-0.79,inactive
DDX60 (DExD/H-box helicase 60),SID134321583,1.27,1.47,1.66,0.68,inactive
SCAF4 (SR-related CTD associated factor 4),SID134329565,0.5,0.34,0.56,0.6,inactive
NIT1 (nitrilase 1),SID134323769,0.47,0.12,0.82,0.48,inactive
HTRA4 (HtrA serine peptidase 4),SID134311307,-0.67,-0.89,-0.8,-0.34,inactive
C19orf38 (chromosome 19 open reading frame 38),SID134325900,-1.19,-0.78,-1.44,-1.37,inactive
PTGDS (prostaglandin D2 synthase),SID134314422,0.24,0.17,0.17,0.38,inactive
RNASEH2A (ribonuclease H2 subunit A),SID134309942,-0.05,0,-0.13,0,inactive
TMEM254 (transmembrane protein 254),SID134322775,0.4,0.77,0.31,0.12,inactive
EEF1B2P6,SID134327904,-0.37,-0.21,-0.46,-0.43,inactive
PARP4 (poly(ADP-ribose) polymerase family member 4),SID134312327,-0.76,-0.5,-0.83,-0.94,inactive
SPATA2L (spermatogenesis associated 2 like),SID134322165,0.29,0.4,0.22,0.25,inactive
RBM42 (RNA binding motif protein 42),SID134319687,0.72,1.06,0.47,0.64,inactive
ARHGAP18 (Rho GTPase activating protein 18),SID134319164,-0.72,-0.59,-0.66,-0.91,inactive
SND1 (staphylococcal nuclease and tudor domain containing 1),SID134315150,-0.52,-0.47,-0.7,-0.4,inactive
ZNF132 (zinc finger protein 132),SID134323341,0.53,0.36,0.5,0.72,inactive
TMEM105 (TMEM105 long non-coding RNA),SID134322171,0.09,0.19,0.05,0.02,inactive
DRC3 (dynein regulatory complex subunit 3),SID134323209,0.23,0.32,-0.08,0.45,inactive
SLC25A12,SID134312517,-0.59,-0.47,-0.57,-0.74,inactive
TCP11 (t-complex 11),SID134321876,1.11,1.16,1.01,1.16,inactive
BLZF1 (basic leucine zipper nuclear factor 1),SID134325016,-0.63,-0.51,-0.63,-0.74,inactive
"TAFAZZIN (tafazzin, phospholipid-lysophospholipid transacylase)",SID134314338,0.12,-0.18,-0.17,0.71,inactive
MMAB (metabolism of cobalamin associated B),SID134319190,0.42,-0.11,0.64,0.72,inactive
"LAMTOR5 (late endosomal/lysosomal adaptor, MAPK and MTOR activator 5)",SID134316551,-1.11,-0.86,-1.18,-1.29,inactive
TASOR2 (transcription activation suppressor family member 2),SID134328197,-0.03,0.34,-0.15,-0.28,inactive
FAM111B (FAM111 trypsin like peptidase B),SID134329236,-0.42,-0.28,-0.69,-0.29,inactive
OLFM2 (olfactomedin 2),SID134319261,-0.9,-1.09,-1.15,-0.47,inactive
LILRA4 (leukocyte immunoglobulin like receptor A4),SID134316720,0.6,0.49,0.6,0.71,inactive
SUSD3 (sushi domain containing 3),SID134320787,-0.03,-0.14,-0.05,0.11,inactive
ADSS1 (adenylosuccinate synthase 1),SID134313935,0.94,0.87,0.92,1.02,inactive
NOS3 (nitric oxide synthase 3),SID134311822,0.86,0.93,1,0.65,inactive
ZNF48 (zinc finger protein 48),SID134320408,0.1,-0.05,-0.16,0.5,inactive
IGBP1 (immunoglobulin binding protein 1),SID134315646,-0.02,0.1,-0.14,-0.03,inactive
FAM167A (family with sequence similarity 167 member A),SID134319247,-0.23,-0.22,-0.16,-0.29,inactive
AFG3L2 (AFG3 like matrix AAA peptidase subunit 2),SID134311209,-0.69,-0.51,-0.87,-0.68,inactive
SLC38A11,SID134312384,-1.33,-1.75,-1.26,-1,inactive
"PFKFB1 (6-phosphofructo-2-kinase/fructose-2,6-biphosphatase 1)",SID56479125,-0.61,-0.42,-0.59,-0.83,inactive
GCM2 (GCM transcription factor 2),SID134323607,-0.14,0,-0.22,-0.2,inactive
SETDB2 (SET domain bifurcated histone lysine methyltransferase 2),SID134318853,-0.9,-1.09,-0.98,-0.62,inactive
AGR3,SID134315182,-0.74,-0.62,-0.9,-0.71,inactive
HTN1 (histatin 1),SID134320666,0.92,1.02,0.56,1.19,inactive
CDC42SE1 (CDC42 small effector 1),SID134318011,-1,-0.86,-1.11,-1.03,inactive
CLTC (clathrin heavy chain),SID134310218,0.58,0.44,0.66,0.64,inactive
LOC150580 (retired record),SID134325421,0.37,1.06,0.36,-0.29,inactive
RECK (reversion inducing cysteine rich protein with kazal motifs),SID134315809,-0.17,0,-0.29,-0.21,inactive
TIMM44 (translocase of inner mitochondrial membrane 44),SID134310115,-0.65,-0.42,-0.87,-0.66,inactive
EIF4A2 (eukaryotic translation initiation factor 4A2),SID134317967,0.81,0.66,1.15,0.63,inactive
"TRIM51FP (tripartite motif-containing 51F, pseudogene)",SID134326653,-1.41,-0.96,-1.71,-1.56,inactive
KCNF1,SID134311645,-0.43,-0.09,-0.48,-0.73,inactive
C5orf46 (chromosome 5 open reading frame 46),SID134329472,0.98,1.08,1.32,0.54,inactive
AQP4 (aquaporin 4),SID134315905,-0.19,-0.07,-0.18,-0.33,inactive
OR10R2 (olfactory receptor family 10 subfamily R member 2),SID134325379,0.15,0.29,-0.31,0.46,inactive
MED16 (mediator complex subunit 16),SID134310061,0.79,0.98,0.82,0.58,inactive
"PSMD12 (proteasome 26S subunit, non-ATPase 12)",SID134315712,0.14,0.23,0.01,0.18,inactive
ATP11B (ATPase phospholipid transporting 11B (putative)),SID134325789,0.07,-0.03,0.05,0.2,inactive
"NUDC (nuclear distribution C, dynein complex regulator)",SID134322191,-1.22,-1.42,-1.06,-1.18,inactive
ZBTB18 (zinc finger and BTB domain containing 18),SID134319405,0.51,1.21,0.35,-0.04,inactive
TG (thyroglobulin),SID134314060,-0.04,-0.07,0.09,-0.14,inactive
LPXN (leupaxin),SID134314463,-0.82,-0.84,-0.94,-0.69,inactive
LOC400813 (retired record),SID134327078,-1.3,-0.77,-1.24,-1.89,inactive
PPP5C (protein phosphatase 5 catalytic subunit),SID134314024,-0.42,-0.35,-0.56,-0.35,inactive
EVI2A (ecotropic viral integration site 2A),SID134315011,2.23,1.93,1.98,2.8,inactive
VIT (vitrin),SID134319766,-0.36,-0.15,-0.39,-0.54,inactive
NBPF3 (NBPF member 3),SID134318914,-0.64,-0.77,-0.75,-0.41,inactive
CENPL (centromere protein L),SID134327023,0.66,0.88,0.67,0.43,inactive

A few values from the entries so far.
For “z-score, replicate C”, DDX60 (DExD/H-box helicase 60) [SID134321583] reads 0.68
CENPL (centromere protein L) [SID134327023], z-score, replicate A = 0.88
Under “z-score, replicate B”, SATB2-AS1 (SATB2 antisense RNA 1) [SID134320507] is entered as 0.56
TRIM51FP (tripartite motif-containing 51F, pseudogene) [SID134326653], z-score, replicate B: -1.71
Result for ADRA1B (adrenoceptor alpha 1B) [SID56479066] under “call”: inactive
Value for SETDB2 (SET domain bifurcated histone lysine methyltransferase 2) [SID134318853] in “z-score, replicate C”: -0.62
